Experimental data as given in article PMC7102498.
Construct, isoform or probe ends are uncertain for at least one entry.

Sequences of proteins named here, by UniProt entry; tags and fusion partners are left off. A change or cut given only in a name is not applied to a line headed by its entry.
UniProt P52076: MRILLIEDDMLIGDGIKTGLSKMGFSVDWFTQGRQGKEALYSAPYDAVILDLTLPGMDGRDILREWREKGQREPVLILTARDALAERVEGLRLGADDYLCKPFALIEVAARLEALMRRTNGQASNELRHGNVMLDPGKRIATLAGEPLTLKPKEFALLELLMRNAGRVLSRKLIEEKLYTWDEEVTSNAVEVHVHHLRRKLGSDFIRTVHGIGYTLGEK

Target: QseB (UniProt P52076)
Assay: EMSA
Details: QseB 0-12 uM, recombinant protein, residues 1-219, protein details: His6 (pET28a), probe letters rebuilt from the primers and the genome

ATTAGTTGCCCTGGCAAGTAATTAGTTGCAGGGGATAATATTGCCCAGGCAAGTATAAGTCAAATGAATGAATTGACCGATGCCACGTTTTGCTAAATCGGTTCAAGTTTTGTTCAATGCGATGCAAGGCTAGCTAAAGAGTGACACTTTATCCTTGTTTACCCCTTATACTTTTCGCTGATAACCCAGATACACAGGATAACAACCACCA (double strand) [p-marA promoter]
binding result (shift lost with 10-fold unlabeled probe): binds

GTTTATTACTCCCTTTAATGTCTGTTTCCGAGCATTTAACAAGATAGTCCTTAACAACTTCTTAAGGGAAAAAAATAAAATTTAGTGCTGTACAGAGCGCGTTACAACACGGTTTACTGGCAGCAAATACGGTTATCGCAGGGATGAAAAA (double strand) [p-qseB promoter]
binding result: binds
